Assay results as given in paper PMC2852069 (Indian Journal of Pharmaceutical Sciences, 2008).

Tested on: Huh 5-2 cells

Interferon alfa-2b
cytostatic activity: * % untreted control. Interferon alfa-2b at 10.000 units/well reduced the signal in the viral RNA (luciferase) assay to background levels; without any cytostatic activity
